A mixed list of measured activities; the numbers were collected in NIAID ChemDB.

Common to all: growth or infection tests; agent: Hepatitis B virus; read-out: inhibition

An empty or dashed field is not shown.

structure | strain or isolate | cell line | method | tested at | value
CC1=C(O)C(=O)C=C2C1=CC=C1[C@@]2(C)CC[C@@]2(C)[C@@H]3C[C@](C)(C(=O)O)CC[C@]3(C)CC[C@]12C |  | HepG2 2.2.15 | ELISA | 25 µM | 25.9%
Cc1cn([C@H]2O[C@@H](CO)[C@H](O)[C@H]2F)c(=O)[nH]c1=O | WILD TYPE | HepG2 |  | 0.2 µM | 94%
CC(C)OC(=O)CC1COP(=O)(CO[C@H](C)Cn2cnc3c(NC(=O)c4ccccc4)ncnc32)OC1 | Genotype D | PHH | PCR | 1 µM | ≤30%
CN(C)CCCOc1ccc2nc(SCc3ccccc3)n(Cc3ccco3)c(=O)c2c1 |  | HepG2 2.2.15 | PCR | 0.8 µM | 67.31%
COC(=O)[C@]1(C)CC[C@]2(C)CC[C@]3(C)C4=CC=C5C(=CC(=O)C(OC)=C5C)[C@]4(C)CC[C@@]3(C)[C@@H]2C1 |  | HepG2 2.2.15 | PCR | 25 µM | 10.5%
CCOC(=O)CC1COP(=O)(CO[C@H](C)Cn2cnc3c(N(C(C)=O)C(C)=O)ncnc32)OC1 | Genotype D | HepaRG | PCR | 1 µM | 50–80%
CC1=C(O)C(=O)C=C2C1=CC=C1[C@@]2(C)CC[C@@]2(C)[C@@H]3C[C@](C)(C(=O)N4CCOCC4)CC[C@]3(C)CC[C@]12C |  | HepG2 2.2.15 | PCR | 25 µM | 26%
CCOC(=O)CCC1COP(=O)(CO[C@H](C)Cn2cnc3c(N)ncnc32)OC1 | Genotype D | PHH | PCR | 1 µM | 50–80%
CC1=C(O)C(=O)C=C2C1=CC=C1[C@@]2(C)CC[C@@]2(C)[C@@H]3C[C@](C)(C(=O)N4CCCC4)CC[C@]3(C)CC[C@]12C |  | HepG2 2.2.15 | PCR | 25 µM | 25.9%
Nc1nc(=O)n([C@@H]2C=C[C@H](CO)O2)cc1F | WILD TYPE | HepG2 |  | 0.01 µM | 93%
CCC(CCC(C)C1CCC2C3C[C@@H](O)[C@@]4(O)C[C@@H](O)CCC4(C)C3CCC12C)C(C)C |  | HepG2 2.2.15 | antigen | 25 µg/mL | 26.9%
CCOC(=O)CC1COP(=O)(CO[C@H](C)Cn2cnc3c(NC(C)=O)ncnc32)OC1 | Genotype D | HepaRG | PCR | 1 µM | 50–80%
Nc1ccn([C@@H]2CS[C@H](CO)O2)c(=O)n1 |  | HepG2 2.2.15 | PCR | 1 µM | 0.26%
CC1=C(O)C(=O)C=C2C1=CC=C1[C@@]2(C)CC[C@@]2(C)[C@@H]3C[C@](C)(C(=O)N(C)C)CC[C@]3(C)CC[C@]12C |  | HepG2 2.2.15 | PCR | 25 µM | 48.5%
CC(C)OC(=O)CCC1COP(=O)(CO[C@H](C)Cn2cnc3c(N)ncnc32)OC1 | Genotype D | PHH | PCR | 1 µM | 50–80%

For reference, 2 entries again:

{"structure": "CC1=C(O)C(=O)C=C2C1=CC=C1[C@@]2(C)CC[C@@]2(C)[C@@H]3C[C@](C)(C(=O)N(C)C)CC[C@]3(C)CC[C@]12C", "cell line": "HepG2 2.2.15", "method": "PCR", "tested at": "25 µM", "value": "48.5%"}
{"structure": "CCC(CCC(C)C1CCC2C3C[C@@H](O)[C@@]4(O)C[C@@H](O)CCC4(C)C3CCC12C)C(C)C", "cell line": "HepG2 2.2.15", "method": "antigen", "tested at": "25 µg/mL", "value": "26.9%"}

a–b is a range or a potency band. Percent inhibition refers to the dose given; in toxicity tests it is the harm to the cells. Conditions beyond the fields shown may differ between rows.